Results of unrelated studies side by side (data: NIAID ChemDB).

Shared fields: whole-cell or culture tests; agent: Candida albicans; read-out: EC50

Blank or dashed fields: not listed here. ECn: concentration that inhibits the pathogen or its effect by n%. a–b is a range or a potency band. Neighbouring rows are from separate reports.

compound | strain or isolate | result
Cc1cnc(Nc2ccc(Cl)cc2)nc1Nc1ccc(Cl)cc1 |  | 0.92 µg/mL
Cc1c(C(=O)O)c(-c2ccc(Br)cc2)cn1-c1ccc(Br)cc1 | 40 strains | >12.29 µg/mL
C=C(CN1CCN(C)CC1)C(=O)c1ccccc1 |  | 2.32 µM
O=C(N[C@H](CO)[C@H](O)c1ccc([N+](=O)[O-])cc1)C(Cl)Cl |  | >100 µg/mL
O=Cc1cc(-c2ccccc2Cl)on1 |  | 17.6 µg/mL
COc1ccc(C(O)Cc2ccc(Cl)cc2)cc1 | 28 strains | <256 µg/mL
Cc1ccc(-c2noc(C)c2C=O)cc1 |  | 43.76 µg/mL
COc1ccc(SC2=C(Sc3ccc(OC)cc3)C(=O)c3ccccc3C2=O)cc1 |  | >0.2 µg/mL
Cn1c2ccccc2c2c1cc1ccccc1[n+]2C | ATCC 90028 | 3.1 µg/mL
C=C(CN1CCN(C)CC1)C(=O)c1ccc(OC)cc1 |  | 8.05 µM
COc1ccc(C(=O)C(Cc2ccc(Cl)cc2Cl)c2ccc(Cl)cc2)cc1 | 28 strains | >256 µg/mL
c1ccc(CCCCCn2c3ccccc3c3nc4ccccc4cc32)cc1 | ATCC 90028 | 18 µg/mL
CC(C)(C)C1CCC(CN2C3=NC[C@H](CC4CCCCC4)N3C[C@H]2CC2CCCCC2)CC1 | ATCC 10231 | 4.4 µg/mL
COc1c(O)c2c(=O)cc(OC)c3c4c(OC)cc(=O)c5c(O)c(OC)c6c(c(c1CC(C)=C6OC(C)=O)c23)c54 |  | 5 µg/mL
CS(=O)(=O)OC[C@H]1CO[C@](Cn2ccnc2)(c2ccc(-c3ccccc3)cc2)O1 | 44 strains | 64 µg/mL
O=c1cc(-c2ccccc2)oc2cc(O)cc(O)c12 |  | >50 µg/mL
Cc1c(C(=O)N(CCO)CCO)cc(-c2ccc([N+](=O)[O-])cc2)n1Cc1ccccc1 | 20 strains | >200 µg/mL
O=Cc1cc(-c2ccc(Cl)cc2)no1 |  | 20.9 µg/mL
COc1ccc(CC(c2ccc(OC)cc2)n2cncn2)cc1 | 28 strains | <256 µg/mL
Cc1ccc(-n2cc(-c3ccc(F)cc3)c(C(=O)O)c2C)cc1 | 40 strains | >11.91 µg/mL
Cn1c2ccccc2c2nc3ccc(Br)cc3cc21 | ATCC 90028 | 43 µg/mL
O=[N+]([O-])c1c(Cl)cccc1-c1c[nH]cc1Cl | 40 strains | >47.92 µg/mL
CC(C)(C)C1CCC(CN2C3=NC[C@@H](CC4CCCCC4)N3C[C@@H]2CC2CCCCC2)CC1 | ATCC 10231 | 2.3 µg/mL
C[C@H]1[C@H](O)[C@@H](C)/C=C/C=C/C=C/C=C/C=C/C=C/C=C/[C@H](O[C@@H]2O[C@H](C)[C@@H](O)[C@H](N)[C@@H]2O)C[C@@H]2O[C@](O)(C[C@@H](O)C[C@@H](O)CC[C@H](O)[C@@H](O)C[C@@H](O)CC(=O)O[C@H]1C)C[C@H](O)[C@H]2C(=O)O |  | 0.01–0.02 µg/mL
Cc1ccc(-c2cn(-c3ccc(Cl)cc3)c(C)c2C(=O)O)cc1 | 40 strains | <36.5 µg/mL
NC[C@@H]1O[C@H](O[C@H]2[C@@H](O)[C@H](O[C@@H]3[C@@H](O)[C@H](N)C[C@H](N)[C@H]3O[C@H]3O[C@H](CN)[C@@H](O)[C@H](O)[C@H]3N)O[C@@H]2CO)[C@H](N)[C@@H](O)[C@@H]1O |  | 1.1 µg/mL
Cc1cnc(Nc2ccc(O)cc2)nc1Nc1ccc(O)cc1 |  | 51 µg/mL
CCN1C2=NC[C@@H](CC3CCCCC3)N2C[C@@H]1Cc1ccccc1 | ATCC 10231 | >64 µg/mL
COc1ccc2c(c1)cc1c(c3ccccc3n1C)[n+]2C | ATCC 90028 | 2.1 µg/mL
COc1cc(OC)c2c(c1)OC(c1ccccc1)C/C2=N\O |  | >50 µg/mL
Cc1c(C(=O)N2CCN(C)CC2)cc(-c2ccc([N+](=O)[O-])cc2)n1C | 20 strains | >200 µg/mL
CCC(C(=O)c1ccc(OC)cc1)c1ccc(Cl)cc1 | 28 strains | >256 µg/mL
OC[C@@H]1CO[C@](Cn2ccnc2)(c2ccc(-c3ccccc3)cc2)O1 | 44 strains | 128 µg/mL
COc1ccc(C(Cc2ccc(Cl)cc2Cl)C(c2ccc(OC)cc2)n2cncn2)cc1 | 28 strains | >256 µg/mL
CC(C)(C)C1CCC(CN2C3=NC[C@@H](C4CCCCC4)N3C[C@@H]2C2CCCCC2)CC1 | ATCC 10231 | 16.8 µg/mL
CCCCCCCCCCn1c(-c2ccc([N+](=O)[O-])cc2)cc(C(=O)N(CCO)CCO)c1C | 20 strains | >200 µg/mL
O=C1C(Nc2ccc(Br)cc2)=C(S(=O)c2ccccc2)C(=O)c2ccccc21 |  | >0.2 µg/mL
Cc1onc(-c2cccc(Cl)c2)c1C=O |  | 26.97 µg/mL
COc1ccc(NC2=C(S(=O)c3ccccc3)C(=O)c3ccccc3C2=O)cc1 |  | >0.2 µg/mL
COc1ccc(CC(c2ccc(OC)cc2)n2ccnc2)cc1 | 28 strains | <256 µg/mL
CC(C)(C)C1CCC(CN2C3=NC[C@@H](CC4CCCCC4)N3C[C@H]2C2CCCCC2)CC1 | ATCC 10231 | 8.7 µg/mL
Brc1ccc2[nH+]c3c4ccccc4n(CCCCCC4CCCCC4)c3cc2c1 | ATCC 90028 | >50 µg/mL
CC[C@H](C)/C=C(C)/C=C/C1=CC2=C(Cl)C(=O)[C@@]3(C)OC(=O)C(C(C)=O)=C3C2=CO1 |  | 16.7 µg/mL
O=C1C(Nc2ccc(Cl)cc2)=C(S(=O)c2ccccc2)C(=O)c2ccccc21 |  | >0.2 µg/mL
O=C(OCC1COC(Cn2ccnc2)(c2ccc(-c3ccccc3)cc2)O1)c1ccccc1 | 44 strains | 8 µg/mL
c1ccc(Oc2ccnc(Oc3ccccc3)n2)cc1 |  | 24 µg/mL
Cn1c2ccccc2c2nc3ccccc3cc21 | ATCC 90028 | 125 µg/mL
O[C@](Cn1cncn1)(Cn1cnc(/C=C/c2ccc(OCC(F)(F)C(F)F)cc2)n1)c1ccc(F)cc1F | CA033 | 0.5 µM
Cc1cnc(Oc2ccc(Cl)cc2)nc1Oc1ccc(Cl)cc1 |  | 16.8 µg/mL
CC(=O)c1ccc(Nc2ncc(C)c(Nc3ccc(C(C)=O)cc3)n2)cc1 |  | 23.5 µg/mL
COc1ccc(Oc2ncc(C)c(Oc3ccc(OC)cc3)n2)cc1 |  | 15.8 µg/mL
Cc1cnc(Nc2ccc(Cl)cc2)nc1Nc1ccc(Cl)cc1 |  | 0.92 µg/mL
CCCCCCn1c(-c2ccc([N+](=O)[O-])cc2)cc(C(=O)N(CCO)CCO)c1C | 20 strains | >200 µg/mL
O=S(c1ccccc1)c1c(Sc2ccccc2)c(O)c2ccccc2c1O |  | >0.2 µg/mL
COc1ccc(C(Cc2ccc(Cl)cc2Cl)C(c2ccc(OC)cc2)n2ccnc2)cc1 | 28 strains | <256 µg/mL
N#Cc1ccc2[nH+]c3c4ccccc4n(CCCCCC4CCCCC4)c3cc2c1 | ATCC 90028 | >50 µg/mL
O=C(OC[C@H]1CO[C@](Cn2ccnc2)(c2ccc(-c3ccccc3)cc2)O1)c1ccccc1 | 44 strains | 8 µg/mL
C=C(CN(C)C)C(=O)c1ccc(Cl)cc1 |  | 11.01 µM
CCCCCCn1c(-c2ccc([N+](=O)[O-])cc2)cc(C(=O)N2CCN(C)CC2)c1C | 20 strains | >200 µg/mL

3 of the rows above, restated:

{"compound": "O=Cc1cc(-c2ccc(Cl)cc2)no1", "result": "20.9 µg/mL"}
{"compound": "CC(C)(C)C1CCC(CN2C3=NC[C@@H](CC4CCCCC4)N3C[C@H]2C2CCCCC2)CC1", "strain or isolate": "ATCC 10231", "result": "8.7 µg/mL"}
{"compound": "Cc1ccc(-c2cn(-c3ccc(Cl)cc3)c(C)c2C(=O)O)cc1", "strain or isolate": "40 strains", "result": "<36.5 µg/mL"}